Anti-infective test results gathered from many reports (values: NIAID ChemDB through PubChem).

All rows: whole-cell or culture tests; species: Candida albicans; read by: agar diffusion; read-out: zone

Conditions beyond the fields shown may differ between rows. Zone: diameter of growth inhibition.

{"compound": "Cc1ccc(N2NOC(=O)C2S(=O)(=O)Nc2nc(-c3c(F)cc(Cl)cc3Cl)cs2)cc1", "strain or isolate": "MTCC 227", "tested at": "250 µg/mL", "result": "21 mm"}
{"compound": "CC[C@H]1OC(=O)[C@H](C)[C@@H](O[C@H]2C[C@@](C)(OC)[C@@H](O)[C@H](C)O2)[C@H](C)[C@@H](O[C@@H]2O[C@H](C)C[C@H](N(C)C)[C@H]2O)[C@](C)(O)C[C@@H](C)C(=O)[C@H](C)[C@@H](O)[C@]1(C)O", "strain or isolate": "WILD TYPE", "tested at": "15 µg", "result": "6 mm"}
{"compound": "Cc1ccc([O][Hg][Cl])c(/C=N/NC(=O)Nc2nc(-c3ccccc3)cs2)c1", "tested at": "100 µg/mL", "result": "22 mm"}
{"compound": "C[C@@H]1[C@H](O)[C@@H](C)/C=C/C=C/CC/C=C/C=C/C=C/C=C/C(O[C@H]2O[C@H](C)[C@@H](O)[C@H](N)[C@@H]2O)CC2O[C@](O)(CC(O)C(O)CCC(O)CC(O)CC(O)CC(=O)O[C@H]1C)CC(O)C2C(=O)O", "strain or isolate": "MTCC 7253", "tested at": "10 µg/disc", "result": "8 mm"}
{"compound": "Cc1ccc(N2NOC(=O)C2S(=O)(=O)Nc2nc3ccc(C)cc3s2)cc1", "strain or isolate": "MTCC 227", "tested at": "250 µg/mL", "result": "23 mm"}
{"compound": "C=CCN1C(=O)C2(C3=C(C(=O)c4ccccc4C3=O)C3CCCN32)c2ccccc21", "tested at": "50 µg/mL", "result": "0 mm"}
{"compound": "CC(=O)Oc1c(-c2ccc(N(C)C)cc2)oc2ccc(Cl)cc2c1=O", "tested at": "100 µg/mL", "result": "19 mm"}
{"compound": "Cc1ccc(N2NOC(=O)C2S(=O)(=O)Nc2nc3ccc(F)cc3s2)cc1", "strain or isolate": "MTCC 227", "tested at": "250 µg/mL", "result": "23 mm"}
{"compound": "O=c1c(O)c(-c2ccco2)oc2ccccc12", "tested at": "100 µg/mL", "result": "18 mm"}
{"compound": "CCCCc1nc(Cl)c(-c2cc(-c3ccc4ccccc4c3)nc3c2C(=O)c2ccccc2-3)n1Cc1ccccc1", "strain or isolate": "MTCC 7253", "tested at": "10 µg/disc", "result": "10 mm"}
{"compound": "CC(C)=CCC[C@@H](C)CC=O", "tested at": "35 µg/disc", "result": "35 mm"}
{"compound": "CCCCc1nc(Cl)c(-c2cc(-c3ccc4oc5ccccc5c4c3)nc3c2C(=O)c2ccccc2-3)n1Cc1ccccc1", "strain or isolate": "MTCC 7253", "tested at": "10 µg/disc", "result": "10 mm"}
{"compound": "C(/C=C/c1ccccc1)=NCCNCCN=C/C=C/c1ccccc1.[Cl][Hg][Cl]", "tested at": "20000 µg/mL", "result": "27 mm"}
{"compound": "NC(=NCCCCCCN=C(N)/N=C(\\N)Nc1ccc(Cl)cc1)/N=C(\\N)Nc1ccc(Cl)cc1", "strain or isolate": "ATCC 10231", "tested at": "2000 µg/mL", "result": "11.33 mm"}
{"compound": "CC(C)(CN=C/C=C/c1ccccc1[N+](=O)[O-])CN=C/C=C/c1ccccc1[N+](=O)[O-]", "tested at": "2.5 mg/disc", "result": "19.2 mm"}
{"compound": "CCCCc1nc(Cl)c(-c2cc(-c3cccc4ccccc34)nc3c2C(=O)c2ccccc2-3)n1Cc1ccccc1", "strain or isolate": "MTCC 7253", "tested at": "10 µg/disc", "result": "12 mm"}
{"compound": "COc1ccc(-c2csc(NS(=O)(=O)C3C(=O)ONN3c3ccc(C)cc3)n2)cc1", "strain or isolate": "MTCC 227", "tested at": "250 µg/mL", "result": "20 mm"}
{"compound": "Cc1cccc(CSc2c(O)cc(-c3ccccc3)oc2=O)c1", "tested at": "35 µg/disc", "result": "32.5 mm"}
{"compound": "CN1CC2=C(C(=O)c3ccccc3C2=O)C12C(=O)c1ccccc1C2=O", "tested at": "50 µg/mL", "result": "0 mm"}
{"compound": "O=C1C=CC(=O)c2c(O)cccc21", "strain or isolate": "FRCA", "tested at": "100 µg/well", "result": "0 mm"}
{"compound": "CC(=O)OCC1=C(C(=O)O)N2C(=O)[C@@H](NC(=O)Cc3cccs3)[C@H]2SC1", "strain or isolate": "WILD TYPE", "tested at": "30 µg", "result": "6 mm"}
{"compound": "CC(=O)Oc1c(-c2ccco2)oc2ccccc2c1=O", "tested at": "100 µg/mL", "result": "24 mm"}
{"compound": "COC(=O)[C@H](Cc1ccccc1)NC(=O)CSC1=C(OC)C(=O)c2ccccc2C1=O", "strain or isolate": "FRCA", "tested at": "100 µg/well", "result": "0 mm"}
{"compound": "CN(C)c1ccc(-c2oc3ccc(Cl)cc3c(=O)c2O)cc1", "tested at": "100 µg/mL", "result": "13 mm"}
{"compound": "C(/C=C/c1ccccc1)=NCCNCCN=C/C=C/c1ccccc1.[I][Hg][I]", "tested at": "30000 µg/mL", "result": "42 mm"}
{"compound": "COc1ccc(-c2oc3ccccc3c(=O)c2O)cc1OC", "tested at": "100 µg/mL", "result": "12 mm"}
{"compound": "OC(Cn1cncn1)(Cn1cncn1)c1ccc(F)cc1F", "strain or isolate": "FRCA", "tested at": "100 µg/well", "result": "0 mm"}